{
  "source": "paper PMC8130932",
  "about": "(PLoS Pathogens, 2021)",
  "target": "T1, SARS-CoV-2 spike glycoprotein, full-length, prefusion-stabilised, on MDCK-SIAT1 cells (SARS-CoV-2, reference sequence, UniProt P0DTC2, 986KV987 to 986PP987 | 682RRAR685 to 682GSAG685)",
  "T1 construct": "also called MDCK-Spike",
  "assay": "flow cytometry on cells",
  "details": "one partner purified",
  "data": [
    {"binder": "FD 5D (antibody, V domains shown, source: HEK293T, transfected; culture supernatant or purified) VH: EVQLVESGGGLVQPGGSLRLSCAASGFTFSSYSMNWVRQAPGKGLEWVSYISSSSSTIYYADPVKGRFTISRDNAKNSLYLQMNSLRAEDTAVYYCASPGGITAAGTSVLFGYYGMDVWGQGTMVTVSS VL: not shown", "values": [
      {"measurement": "binding result", "result": "binds"}
    ]}
  ]
}
